Results of unrelated studies side by side (data: NIAID ChemDB).

All rows: target-level tests; species: HIV-1; target: Reverse transcriptase; endpoint: IC50

a–b is a range or a potency band.

structure	strain or isolate	changes	read by	result
CCc1ccc(-n2c(SCC(=O)Nc3ccc(C(=O)O)cc3Cl)nnc2C(F)F)c2ccccc12		RT-Y181C	nucleotide incorporation / radiometric	<0.05 µM
CCN1c2ncc(CCOc3ccc(C(=O)Nc4ccc(C(=O)O)cn4)cc3C)cc2C(=O)N(C)c2cccnc21	IIIB	RT-K103N Y181C	nucleotide incorporation / radiometric	<0.05 µM
Cc1ccc(-n2c(SCC(=O)Nc3ccc(S(=O)(=O)NC(C(=O)O)C(C)C)cc3Cl)nnc2C(F)F)c2c1CCCC2			nucleotide incorporation / radiometric	<0.05 µM
Cc1nnc(SCC(=O)Nc2ccc(-c3ccc(OCCN4CCCCC4)cc3)cc2Cl)n1-c1ccc(C2CC2)cc1Cl	WT		PicoGreen / fluorescence	<1 µM
O=C(O)CNC(=O)c1ccc(NC(=O)CSc2nnc(Br)n2-c2ccc(C3CC3)c3ccccc23)c(Cl)c1			nucleotide incorporation / radiometric	<0.05 µM
CC(C)(C)c1ccc(-n2nnnc2SCC(=O)Nc2ccc(C(=O)Nc3ccc(CCC(=O)O)cc3)cc2Cl)c(Cl)c1	WT		PicoGreen / fluorescence	<1 µM
N#Cc1cc(Cl)cc(Oc2cc(OCC(=O)Nc3ccncc3C(F)(F)F)ccc2Cl)c1			nucleotide incorporation / radiometric	<20 µM
Cc1ccc(-n2c(C)nnc2SCC(=O)Nc2ccc(S(N)(=O)=O)cc2Cl)c2c1CCCC2		RT-Y181C	nucleotide incorporation / radiometric	0.05–0.1 µM
CCN1c2ncc(CCOc3cccc4c3ccc[n+]4[O-])cc2C(=O)Nc2c(C)cc(Cl)nc21	RT -K103N	RT-K103N	nucleotide incorporation / radiometric	0.025 µM
CC(C)(C)c1ccc(-n2nnnc2SCC(=O)Nc2ccc(NC(=O)C3CCCCC3)cc2Cl)c(Cl)c1		RT-K103 Y181C	PicoGreen / fluorescence	<1 µM
Cc1cc(S(N)(=O)=O)ccc1NC(=O)CSc1nnc(C)n1-c1ccc(C)c2c1CCCC2		RT-Y188L	nucleotide incorporation / radiometric	>0.1 µM
CCN1c2ncc(CCOc3ccc(-c4cccc(C(=O)O)c4)cc3)cc2C(=O)N(C)c2cccnc21	IIIB		nucleotide incorporation / radiometric	<0.05 µM
CS(=O)(=O)c1ccc2c(c1)CCN2C(=O)COc1ccc(Cl)c(Oc2cc(Cl)cc(C#N)c2)c1			nucleotide incorporation / radiometric	<20 µM
CC(C)(C)c1ccc(-n2nnnc2SCC(=O)Nc2ccc(C(=O)Nc3cccc4cccnc34)cc2Cl)c(Cl)c1	WT		PicoGreen / fluorescence	<1 µM
CCc1ccc(-n2c(Br)nnc2SCC(=O)Nc2ccc(S(N)(=O)=O)cc2Br)c2ccccc12			nucleotide incorporation / radiometric	<0.05 µM
CCN1c2ncc(CCOc3ccc(C(=O)Nc4nc(CC(=O)O)cs4)cc3C)cc2C(=O)N(C)c2cccnc21	IIIB		nucleotide incorporation / radiometric	<0.05 µM
Cc1cc(C#CC(C)(C)C(=O)O)ccc1NC(=O)CSc1nnnn1-c1ccc(C(C)(C)C)cc1Cl		RT-K103 Y181C	PicoGreen / fluorescence	<1 µM
CCOC(=O)[C@H](Cc1ccc(O)cc1)NC(=O)c1ccc(NC(=O)CSc2nnc(Br)n2-c2ccc(C3CC3)c3ccccc23)c(Cl)c1		RT-Y181C	nucleotide incorporation / radiometric	<0.05 µM
O=C(CSc1nnc(C(F)F)n1-c1ccc(C2CC2)c2ccccc12)Nc1ccc(C(=O)O)cc1Cl			nucleotide incorporation / radiometric	<0.05 µM
CCc1ccc(-n2c(Br)nnc2SCC(=O)Nc2ccc(C(=O)O)cc2Br)c2ccccc12			nucleotide incorporation / radiometric	<0.05 µM
CC(C)(C#Cc1ccc(NC(=O)CSc2nnnn2-c2ccc(C3CC3)cc2Cl)c(Cl)c1F)OCCO[n+]1cccc([O-])c1	WT		PicoGreen / fluorescence	<1 µM
Cc1cc(S(N)(=O)=O)ccc1NC(=O)CSc1nnc(Br)n1-c1ccc2c3c(cccc13)CC2		RT-Y188L	nucleotide incorporation / radiometric	>0.1 µM
CC(C)(C)c1ccc(-n2nnnc2SCC(=O)Nc2ccc(NC(=O)Cc3ccccc3[N+](=O)[O-])cc2Cl)c(Cl)c1		RT-K103 Y181C	PicoGreen / fluorescence	<1 µM
NS(=O)(=O)c1ccc(NC(=O)CSc2nnc(C(F)F)n2-c2ccc3c4c(cccc24)CC3)c(Cl)c1			nucleotide incorporation / radiometric	<0.05 µM
CCOC(=O)CCNC(=O)c1ccc(NC(=O)CSc2nnc(Br)n2-c2ccc(CC)c3ccccc23)c(Cl)c1		RT-Y181C	nucleotide incorporation / radiometric	<0.05 µM
CC(C)(C)c1ccc(-n2nnnc2SCC(=O)Nc2ccc(C(=O)Nc3ccc(CC(=O)O)cc3)cc2Cl)c(Cl)c1		RT-K103 Y181C	PicoGreen / fluorescence	<1 µM
O=C(CSc1nnc(Br)n1-c1ccc(C2CC2)c2ccccc12)Nc1ccc(C(=O)N[C@@H](Cc2ccc(O)cc2)C(=O)O)cc1Cl			nucleotide incorporation / radiometric	<0.05 µM
CC(C)[C@H](NC(=O)c1ccc(NC(=O)CSc2nnc(Br)n2-c2ccc(C3CC3)c3ccccc23)c(Cl)c1)C(=O)O		RT-Y188L	nucleotide incorporation / radiometric	>0.1 µM
O=C(CSc1nnc(Br)n1-c1cccc2c(OCC3CC3)cccc12)Nc1ccc(C(=O)O)cc1Cl			nucleotide incorporation / radiometric	>0.1 µM
CCN1c2ncc(CCOc3ccc(-c4ccc(CC(=O)O)cc4Cl)cc3C)cc2C(=O)N(C)c2cccnc21	IIIB	RT-K103N Y181C	nucleotide incorporation / radiometric	<0.05 µM
CC(C)(C#Cc1ccc(NC(=O)CSc2nnnn2-c2ccc(C3CC3)cc2Cl)c(Cl)c1)NC(=O)Cn1cncn1	WT		PicoGreen / fluorescence	<1 µM
CCc1ccc(-n2c(CF)nnc2SCC(=O)Nc2ccc(S(N)(=O)=O)cc2Cl)c2c1CCCC2			nucleotide incorporation / radiometric	<0.05 µM
CN(C)CCCNC(=O)C(C)(C)C#Cc1ccc(NC(=O)CSc2nnnn2-c2ccc(CC3CC3)cc2Cl)c(Cl)c1	WT		PicoGreen / fluorescence	<1 µM
CN(C)S(=O)(=O)c1ccc2c(c1)CCN2C(=O)COc1cc(Cl)cc(Oc2cc(Cl)cc(C#N)c2)c1			nucleotide incorporation / radiometric	<20 µM
CC(C)(C)c1ccc(-n2nnnc2SCC(=O)Nc2ccc(C(=O)NC(CO)C(=O)O)cc2Cl)c(Cl)c1	WT		PicoGreen / fluorescence	<1 µM
N#Cc1cc(Cl)cc(Oc2cc(F)cc(OCc3[nH]nc4nc(N)ccc34)c2)c1			nucleotide incorporation / radiometric	<20 µM
CCCCNC(=O)c1ccc(NC(=O)CSc2nnc(Br)n2-c2ccc(CC)c3ccccc23)c(Cl)c1		RT-Y188L	nucleotide incorporation / radiometric	>0.1 µM
CC(C)(C#Cc1ccc(NC(=O)CSc2nnnn2-c2ccc(C3CC3)cc2Cl)c(Cl)c1)NCc1ccccc1O		RT-K103 Y181C	PicoGreen / fluorescence	<1 µM
CCc1cc(C2CC2)ccc1-n1c(Br)nnc1SCC(=O)Nc1ccc(C(=O)O)cc1Cl		RT-Y181C	nucleotide incorporation / radiometric	0.05–0.1 µM
CC(C)(C)c1ccc(-n2nnnc2SCC(=O)Nc2ccc(NS(=O)(=O)c3ccccc3)cc2Cl)c(Cl)c1		RT-K103 Y181C	PicoGreen / fluorescence	<1 µM
CCc1ccc(-n2c(Br)nnc2SCC(=O)Nc2ccc(C(=O)N[C@@H](CO)C(=O)OC)cc2Cl)c2ccccc12		RT-Y181C	nucleotide incorporation / radiometric	<0.05 µM
O=C(CSc1nnc(Br)n1-c1ccc(C2CC2)c2ccccc12)Nc1ccc(C(=O)O)cc1Cl		RT-Y188L	nucleotide incorporation / radiometric	0.05–0.1 µM
CC(C)(C)c1ccc(-n2nnnc2SCC(=O)Nc2ccc(C#Cc3ccccc3)cc2Cl)c(Cl)c1	WT		PicoGreen / fluorescence	<1 µM
O=C(CSc1nnc(Br)n1-c1ccc(C2CC2)cc1OC(F)(F)F)Nc1ccc(S(=O)(=O)O)cc1Cl		RT-Y188L	nucleotide incorporation / radiometric	>0.1 µM
CCOC(=O)CNC(=O)c1ccc(NC(=O)CSc2nnc(Br)n2-c2ccc(C3CC3)c3ccccc23)c(Cl)c1		RT-Y188L	nucleotide incorporation / radiometric	<0.05 µM
CC(C)(C#Cc1ccc(NC(=O)CSc2nnnn2-c2cc(C(F)(F)F)cc(C3CC3)c2Cl)c(Cl)c1)OCCN1CCC(F)(F)C1	WT		PicoGreen / fluorescence	<1 µM
CCc1ccc(-n2c(Br)nnc2SCC(=O)Nc2ccc(C(=O)O)cc2C)c2ccccc12			nucleotide incorporation / radiometric	<0.05 µM
CC(C)(C#Cc1ccc(NC(=O)CSc2nnnn2-c2cccc(C3CC3)c2Cl)c(Cl)c1)C(=O)O		RT-K103 Y181C	PicoGreen / fluorescence	<1 µM
Cc1cc(S(N)(=O)=O)ccc1NC(=O)CSc1nnc(C(F)F)n1-c1ccc(C)c2c1CCCC2			nucleotide incorporation / radiometric	<0.05 µM
CC(C)(C)c1ccc(-n2nnnc2SCC(=O)Nc2ccc(-c3ccc(OCC(=O)O)c(F)c3)cc2Cl)c(Cl)c1		RT-K103 Y181C	PicoGreen / fluorescence	<1 µM
CCc1ccc(-n2c(Br)nnc2SCC(=O)Nc2ccc(C(=O)O)cc2C)c2ccccc12		RT-Y188L	nucleotide incorporation / radiometric	>0.1 µM

The last 3 rows once more:

structure	strain or isolate	changes	read by	result
Cc1cc(S(N)(=O)=O)ccc1NC(=O)CSc1nnc(C(F)F)n1-c1ccc(C)c2c1CCCC2			nucleotide incorporation / radiometric	<0.05 µM
CC(C)(C)c1ccc(-n2nnnc2SCC(=O)Nc2ccc(-c3ccc(OCC(=O)O)c(F)c3)cc2Cl)c(Cl)c1		RT-K103 Y181C	PicoGreen / fluorescence	<1 µM
CCc1ccc(-n2c(Br)nnc2SCC(=O)Nc2ccc(C(=O)O)cc2C)c2ccccc12		RT-Y188L	nucleotide incorporation / radiometric	>0.1 µM

An empty or dashed field is not shown. ICn: concentration for n% inhibition. Neighbouring rows are from separate reports.